# HIV-1 LAI Vif substitutions under APOBEC3G selection

Vif of LAI (a laboratory-adapted subtype B strain), residues 12-115; positions count from the first residue of the whole protein:
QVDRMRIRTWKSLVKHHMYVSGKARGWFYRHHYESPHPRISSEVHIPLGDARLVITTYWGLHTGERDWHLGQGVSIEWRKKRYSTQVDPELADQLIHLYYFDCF

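A pool of vif mutants was passaged twice, 72 h each, on SupT1 cells that express APOBEC3G. Frequencies after the second round, in three biological replicates, were compared with the merged pool after the first round. The overlap of vif with pol had been removed, so integrase is unaffected.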

Values are log2 enrichment relative to wild type (0); lower means weaker defence against APOBEC3G and poorer growth.
Each entry names the wild-type residue, its position and the residue put in its place.
The median of three replicates is given.
Input reads are the counts in the merged round-one pool, before selection.
Replicates agree only moderately (rank correlation about 0.4-0.65); scores from under about 50 input reads tend to be too high.

| # | substitution | input reads | median score |
|---|---|---|---|
| 1 | W21P | 190 | -1.21 |
| 2 | L106K | 69 | -3.45 |
| 3 | H80R | 400 | -4.09 |
| 4 | G84F | 907 | 0.67 |
| 5 | Q12W | 578 | -0.55 |
| 6 | K92L | 351 | -4.21 |
| 7 | S86R | 531 | -1.74 |
| 8 | I87L | 889 | -3.47 |
| 9 | R41Q | 86 | 0.41 |
| 10 | I51Y | 59 | 0.66 |
| 11 | G33E | 2109 | -2.43 |
| 12 | G60Q | 203 | -2.75 |
| 13 | M29W | 348 | -3.47 |
| 14 | S53G | 358 | -2.84 |
| 15 | G37C | 544 | -1.14 |
| 16 | W79I | 1426 | -3.45 |
| 17 | V85D | 384 | -4.10 |
| 18 | V31I | 202 | -1.20 |
| 19 | Q105H | 476 | -1.73 |
| 20 | Q97H | 460 | 1.52 |
| 21 | G82D | 414 | -1.40 |
| 22 | A62Q | 1329 | -3.00 |
| 23 | G84H | 343 | -0.55 |
| 24 | K91V | 373 | -4.76 |
| 25 | P58N | 379 | -3.12 |
| 26 | H27G | 477 | -1.06 |
| 27 | R50N | 488 | -1.90 |
| 28 | R19H | 438 | -2.50 |
| 29 | L102H | 294 | -2.40 |
| 30 | Q83T | 644 | -3.22 |
| 31 | K91H | 381 | -4.79 |
| 32 | H43E | 557 | 1.01 |
| 33 | I66L | 428 | -1.86 |
| 34 | D78Q | 809 | -2.03 |
| 35 | T74N | 88 | 1.97 |
| 36 | H42A | 636 | -0.81 |
| 37 | H27C | 877 | 0.30 |
| 38 | A35F | 450 | -3.02 |
| 39 | P100Y | 526 | -2.60 |
| 40 | H28A | 497 | -1.91 |
| 41 | Y40L | 447 | -2.19 |
| 42 | T20L | 472 | -2.77 |
| 43 | P58E | 383 | -1.85 |
| 44 | V98F | 865 | -1.21 |
| 45 | E88T | 64 | 4.30 |
| 46 | D14Y | 404 | -0.78 |
| 47 | H42D | 189 | 0.15 |
| 48 | G37D | 424 | -0.81 |
| 49 | Y40R | 1437 | -3.00 |
| 50 | R19D | 41 | 0.98 |
| 51 | K92Q | 84 | 0.35 |
| 52 | A35G | 32 | -0.81 |
| 53 | L106V | 106 | -4.07 |
| 54 | D104N | 1343 | -2.73 |
| 55 | Y40A | 832 | -3.05 |
| 56 | S46R | 1083 | 1.73 |
| 57 | I87C | 218 | 2.70 |
| 58 | D113W | 1143 | -3.81 |
| 59 | R36Q | 201 | 2.58 |
| 60 | I107W | 596 | -1.06 |
| 61 | S46Y | 1350 | -1.97 |
| 62 | Q97N | 411 | -0.93 |
| 63 | H42E | 406 | 1.95 |
| 64 | V25W | 126 | 0.39 |
| 65 | S32E | 1250 | -2.29 |
| 66 | V31F | 1590 | -3.22 |
| 67 | E101H | 189 | -2.57 |
| 68 | W79S | 416 | -2.37 |
| 69 | G60W | 1486 | -0.95 |
| 70 | M16G | 482 | -2.60 |
| 71 | V31N | 629 | -0.73 |
| 72 | Y69F | 425 | -2.38 |
| 73 | S52R | 532 | -1.60 |
| 74 | H42T | 508 | 0.57 |
| 75 | R41Y | 42 | 0.70 |
| 76 | W21G | 84 | 0.17 |
| 77 | H73C | 92 | -2.76 |
| 78 | S46V | 1248 | -2.84 |
| 79 | G82S | 405 | -2.40 |
| 80 | Y110Q | 237 | -2.53 |
| 81 | G33V | 1446 | -0.77 |
| 82 | H28V | 162 | 0.95 |
| 83 | R17T | 57 | -1.33 |
| 84 | Y110S | 53 | -3.09 |
| 85 | T20P | 625 | -1.79 |
| 86 | R36S | 238 | 0.49 |
| 87 | Q97Y | 386 | -2.93 |
| 88 | R50D | 310 | -3.39 |
| 89 | I51N | 24 | 1.81 |
| 90 | S53K | 114 | -4.60 |
| 91 | H48F | 194 | -5.43 |
| 92 | E88D | 92 | 0.02 |
| 93 | R90Q | 1041 | -3.46 |
| 94 | V13I | 881 | -1.72 |
| 95 | R50E | 17 | 1.32 |
| 96 | T68K | 2512 | -1.61 |
| 97 | P47K | 861 | -3.46 |
| 98 | R15F | 29 | 2.50 |
| 99 | E45R | 754 | -1.77 |
| 100 | L102C | 303 | -3.75 |
| 101 | A35E | 129 | 1.16 |
| 102 | K92G | 478 | -2.62 |
| 103 | R41L | 172 | 3.28 |
| 104 | G60C | 33 | -2.90 |
| 105 | W70D | 2457 | -1.41 |
| 106 | E76Q | 430 | -3.13 |
| 107 | G33F | 341 | -2.99 |
| 108 | G33K | 10989 | -2.03 |
| 109 | H108Q | 297 | -2.56 |
| 110 | R36D | 190 | 2.41 |
| 111 | Y111D | 24 | -0.37 |
| 112 | K26W | 813 | -3.33 |
| 113 | A35R | 396 | -1.20 |
| 114 | V85L | 940 | -2.98 |
| 115 | Q105K | 219 | -3.55 |
| 116 | F115D | 298 | -3.24 |

The first 13 entries again:

substitution,input reads,median score
W21P,190,-1.21
L106K,69,-3.45
H80R,400,-4.09
G84F,907,0.67
Q12W,578,-0.55
K92L,351,-4.21
S86R,531,-1.74
I87L,889,-3.47
R41Q,86,0.41
I51Y,59,0.66
G33E,2109,-2.43
G60Q,203,-2.75
M29W,348,-3.47

Positive scores are uncertain; some enriched variants did not exclude APOBEC3G in a separate test.
Not every substitution is listed.

Data from the supplement of Langley et al. 2025, preprint, doi:10.1101/2025.10.20.683452.